Measured values taken from patent US10814612B2, “Use of thiazolide compounds for the prevention and treatment of viral diseases, cancer and diseases caused by intracellular infections” (priority 2011, dated 2020).
Some results come without the dose or concentration used.

Tested on: Toll-Like Receptor signalling pathway
Experiment: TLR pathway Real-time PCR array (84 genes) in PBMC
Type: cell-based, human
Conditions: flu-stimulated PBMC, 3 hours of incubation

In the case of `O=C(Nc1ncc(Cl)s1)c1ccccc1O` [RM-4848, N-(5-chlorothiazol-2-yl)-2-hydroxybenzamide], the “number of the 84 TLR-pathway genes upregulated” value is reported as 7.
